Pooled drug test results. Numbers come from NIAID ChemDB, via PubChem.

All rows: enzyme or target tests; species: HIV-1; protein: Reverse transcriptase; endpoint: IC50

Lines come from different laboratories, so protocols vary. Blank or dashed fields: not listed here. ICn: concentration for n% inhibition.

{"SMILES": "Cc1cc(/C=C/C#N)cc(C)c1Oc1ccnc(S(=O)(=O)CC(=O)Nc2ccc(Cl)cc2)n1", "read by": "RT activity / fluorescence", "value": "0.186 µM"}
{"SMILES": "Cc1cn([C@H]2C[C@H](F)[C@@H](COP(=O)(O)OP(=O)(O)OP(=O)(O)O)O2)c(=O)[nH]c1=O", "read by": "nucleotide incorporation", "value": "<0.05 µM"}
{"SMILES": "Nc1nc2c(ncn2[C@H]2CC[C@@H](COP(=O)(O)OP(=O)(O)OP(=O)(O)O)O2)c(=O)[nH]1", "mutations": "RT-W229F", "read by": "radiometric", "value": "0.68 µM"}
{"SMILES": "C/C(=C\\CC/C(C)=C/CCc1ccoc1)C/C=C/C1=CCC(=O)OC1", "read by": "nucleotide incorporation / radiometric", "value": "5.6 µM"}
{"SMILES": "Cc1ccc(C)c(CS(=O)c2ccc(Cl)c[n+]2[O-])c1", "read by": "nucleotide incorporation / radiometric", "value": ">500 µg/mL"}
{"SMILES": "NNC(=O)CSc1nc(-c2cccs2)c2c(n1)-c1ccccc1CC2", "read by": "nucleotide incorporation", "value": "5.6 µM"}
{"SMILES": "COc1cccc(F)c1C1SCC(=O)N1c1cccc(C)c1", "read by": "nucleotide incorporation / radiometric", "value": "28.4 µM"}
{"SMILES": "Cc1cc(C#N)cc(C)c1Oc1ccnc(S(=O)(=O)CC(=O)Nc2ccc(C#N)cc2)n1", "read by": "RT activity / fluorescence", "value": "0.065 µM"}
{"SMILES": "CC[C@H]1C(=O)Nc2ccc(F)cc2N1C(=O)OC(C)C", "read by": "radiometric", "value": "0.04 µM"}
{"SMILES": "Cc1cn([C@@H]2O[C@H](COP(=O)(O)OP(=O)(O)OP(=O)(O)O)C[C@@H]2F)c(=O)[nH]c1=O", "read by": "nucleotide incorporation", "value": "2.22 µM"}
{"SMILES": "CCN1c2ncc(CCOc3ccc(C(=O)Nc4ccc[n+]([O-])c4)cc3C)cc2C(=O)N(C)c2cccnc21", "strain or isolate": "IIIB", "mutations": "RT-K103N Y181C", "read by": "nucleotide incorporation / radiometric", "value": "<0.05 µM"}
{"SMILES": "CC(C)=CCOc1cc(NC(=S)c2ccoc2C)ccc1Cl", "value": "3.2 µM"}
{"SMILES": "Cc1cn([C@H]2CC(F)(F)[C@@H](COP(=O)(O)OP(=O)(O)OP(=O)(O)O)O2)c(=O)[nH]c1=O", "read by": "nucleotide incorporation", "value": "8.83 µM"}
{"SMILES": "COc1c(N2CCN(CN3C(=O)C(=Nc4ccc(S(=O)(=O)Nc5nc(C)cc(C)n5)cc4)c4cc(F)ccc43)C(C)C2)c(F)cc2c(=O)c(C(=O)O)cn(C3CC3)c12", "read by": "nucleotide incorporation / radiometric", "value": "18.4 µM"}
{"SMILES": "O=C(CC1Nc2ccccc2S(=O)(=O)n2cccc21)Oc1ccc(Cl)cc1", "strain or isolate": "IIIB", "read by": "RT activity", "value": "119 µM"}
{"SMILES": "CCOC(=O)CSc1cc(NC(=S)c2ccoc2C)ccc1Cl", "read by": "nucleotide incorporation", "value": "1.811 µM"}
{"SMILES": "CSc1nc(-c2cccs2)c2c(n1)-c1ccccc1CC2", "read by": "nucleotide incorporation", "value": "2.33 µM"}
{"SMILES": "CCN1c2ncc(CCOc3ccc(NS(C)(=O)=O)cc3C)cc2C(=O)N(C)c2cccnc21", "strain or isolate": "IIIB", "read by": "nucleotide incorporation / radiometric", "value": "<0.05 µM"}
{"SMILES": "Cc1occc1C(=S)Nc1ccc(Cl)c(OCCC(C)C)c1", "read by": "nucleotide incorporation", "value": "0.133 µM"}
{"SMILES": "Cc1cc(-c2ccc[n+]([O-])c2)ccc1OCCc1cnc2c(c1)C(=O)N(C)c1cccnc1N2C1CC1", "strain or isolate": "IIIB", "mutations": "RT-K103N Y181C", "read by": "nucleotide incorporation / radiometric", "value": ">0.1 µM"}
{"SMILES": "COc1ccc(C)cc1CS(=O)(=O)c1cccc[n+]1[O-]", "read by": "nucleotide incorporation / radiometric", "value": "94 µg/mL"}
{"SMILES": "O=S1(=O)c2ccccc2-n2cnnc2-c2cccn21", "strain or isolate": "IIIB", "read by": "RT activity", "value": "52 µM"}
{"SMILES": "CC(C)=CCOc1cc(NC(=S)c2ccsc2C)ccc1Cl", "mutations": "RT-L100I", "value": "1.1 µM"}
{"SMILES": "Cc1cc(C)c(S(=O)(=O)OCC2OC3OC4C(CO)OC(OC5C(CO)OC(OC6C(CO)OC(OC7C(CO)OC(OC8C(CO)OC(OC9C(C[n+]%10ccccc%10)OC(OC2C(O)C3O)C(O)C9O)C(O)C8O)C(O)C7O)C(O)C6O)C(O)C5O)C(O)C4O)c(C)c1", "strain or isolate": "LAV", "read by": "RT activity", "value": ">1000 µg/mL"}
{"SMILES": "CC(C)=CCOc1cc(NC(=S)c2ccoc2C)ccc1Cl", "mutations": "RT-W229F", "read by": "nucleotide incorporation", "value": "0.035 µM"}
{"SMILES": "O=C1/C(=C/c2cccs2)CCc2ccccc21", "read by": "nucleotide incorporation", "value": "6.1 µM"}
{"SMILES": "CCN1c2ncc(CCOc3ccc(NC(=O)CC(C)(C)C(=O)O)cc3C)cc2C(=O)N(C)c2cccnc21", "strain or isolate": "IIIB", "read by": "nucleotide incorporation / radiometric", "value": "<0.05 µM"}
{"SMILES": "Cc1cc(C)c(CS(=O)c2cccc[n+]2[O-])c(C)c1", "read by": "nucleotide incorporation / radiometric", "value": ">500 µg/mL"}
{"SMILES": "C/C1=C\\C=C\\C2(C)C=C(CO)C(C)CC23OC([O-])C(C3=O)C(O)/C=C/C2(C)C=C(C=O)C(C)CC23OC([O-])C(C3=O)C(O)/C(C)=C/C=C/C2C=C(CO)C(C)CC23OC([O-])C(C3=O)C(O)/C=C/C2(C)C=C(C=O)C(C)CC23OC([O-])C(C3=O)C1O", "strain or isolate": "IIIB", "read by": "RT activity", "value": "1.6 µg/mL"}
{"SMILES": "S=C1NC2=C(CCc3ccccc32)C(c2cccs2)N1", "read by": "nucleotide incorporation", "value": "6.1 µM"}
{"SMILES": "Cc1cn(COCCOP(=O)(O)OP(=O)(O)OP(=O)(O)O)c(=O)[nH]c1=O", "read by": "nucleotide incorporation", "value": "0.25 µM"}
{"SMILES": "O=C(CSc1nc(-c2cccs2)c2c(n1)-c1ccccc1CC2)N/N=C/c1ccc(F)cc1", "read by": "nucleotide incorporation", "value": "3.4 µM"}
{"SMILES": "CCN1C(=O)C=CC1=O", "read by": "nucleotide incorporation", "value": "750 µM"}
{"SMILES": "O=C(O)CSc1nc(-c2cccs2)c2c(n1)-c1ccccc1CC2", "read by": "nucleotide incorporation", "value": "17.4 µM"}
{"SMILES": "C[C@H]1/C=C/[C@@]2(C)CC[C@@H](C(C)(C)O)[C@@H]2[C@@H](O)C[C@](C)(O)/C=C/C1", "read by": "nucleotide incorporation / radiometric", "value": "<40 µM"}

A second listing of 4 rows from above:

SMILES | strain or isolate | mutations | read by | value
CC[C@H]1C(=O)Nc2ccc(F)cc2N1C(=O)OC(C)C | - | - | radiometric | 0.04 µM
CSc1nc(-c2cccs2)c2c(n1)-c1ccccc1CC2 | - | - | nucleotide incorporation | 2.33 µM
CCOC(=O)CSc1cc(NC(=S)c2ccoc2C)ccc1Cl | - | - | nucleotide incorporation | 1.811 µM
CC(C)=CCOc1cc(NC(=S)c2ccsc2C)ccc1Cl | - | RT-L100I | - | 1.1 µM